Anti-infective test results gathered from many reports (values: NIAID ChemDB through PubChem).

Shared fields: tests in culture; organism: Mycobacterium smegmatis

ECn is the concentration giving n% inhibition of infection, replication or growth.

SMILES,strain or isolate,read by,read-out,tested at,value
Cc1nn(-c2ccccc2)c2c1C(c1cn(-c3ccccc3)nc1-c1ccc(F)cc1)C1=C(NC(C)(c3cc(O)c(Cl)c(O)c3)NC1=O)O2,NCIM 5138,agar diffusion / agar,zone,0.5 mg/mL,7.6 mm
CCCC(=O)O[C@@H](C[C@@]1(C)[C@H](C)CCC(=O)[C@@H]1C)/C(C)=C/Cc1c(O)c(Cl)c(C)c(C=O)c1O,ATCC 607,agar diffusion,zone,10 µg/disc,8 mm
O=C(O)c1cn(C2CC2)c2c(F)c(N3CCNCC3)c(F)cc2c1=O,KD2003 (GYRA D95G),-,MIC99,-,1.3 µg/mL
C=CC1CN2CCC1CC2C[C@H](O)c1ccnc2ccc(OC)cc12,ATCC 700084,broth dilution,MIC99,-,>200 µg/mL
c1ccc(Nc2nc(-c3ccccn3)cs2)nc1,-,visual reading,MIC99,-,2.5 µM
CC1CN(c2nc3c(cc2F)c(=O)c(C(=O)O)cn3-c2ccc(F)cc2F)CC(C)N1,ATCC 19420,-,MIC,-,2 µg/mL
COC(=O)Cc1ccc2[nH]c3ccc(Cl)cc3c2c1,-,resazurin / visual reading / absorbance,MIC99,-,>500 µg/mL
CNCC1CCN(c2c(F)cc3c(=O)c(C(=O)O)cn(C4CC4)c3c2Br)C1,ATCC 19420,-,MIC,-,≤0.03 µg/mL
O=C(Nc1ccc(-c2nc3ccccc3[nH]2)cc1)c1cc2ccccc2o1,mc2155,resazurin / fluorescence,MBC,-,46 µM
CC(C(=O)O)c1ccc2c(c1)[nH]c1ccc(Cl)cc12,-,resazurin / visual reading / absorbance,MIC99,-,500 µg/mL
CC(C)C[C@H](NC(=O)[C@H](Cc1ccccc1)NC(=O)c1cnccn1)B(O)O,-,turbidity,inhibition,30 µM,90%
CCn1cc(C(=O)O)c(=O)c2cc(F)c(N3CCNCC3)nc21,ATCC 19420,-,MIC,-,1.6 µg/mL
CCCN(CCC)C(=O)c1cc(C)cc(C(=O)N[C@H]([C@H](O)CNCc2cccc(I)c2)C(F)(F)c2ccccc2)c1,ATCC 19420,agar diffusion,zone,100 µg/disc,0 mm
O=C(O)c1cn(C2CC2)c2cc(N3CCNCC3)c(F)cc2c1=O,ATCC 607,-,EC50,-,0.104 µg/mL
COC(=O)Cc1cccc2[nH]c3ccc(Cl)cc3c12,-,resazurin / visual reading / absorbance,MIC99,-,>500 µg/mL
Cc1nn(-c2ccccc2)c2c1C(c1cn(-c3ccccc3)nc1-c1ccc(Cl)cc1)C1=C(NC(C)(c3cc(O)c(Cl)c(O)c3)NC1=O)O2,NCIM 5138,agar diffusion / agar,zone,0.5 mg/mL,5.2 mm
O=C(N[C@H]([C@H](O)CNCc1cccc(I)c1)C(F)(F)c1ccccc1)OCc1ccccc1,19420,agar diffusion,zone,50 µg/disc,10 mm
COC(=O)Cc1ccc2[nH]c3ccc(F)cc3c2c1,-,resazurin / visual reading / absorbance,MIC99,-,>500 µg/mL
CCC1CN(c2c(F)cc3c(=O)c(C(=O)O)cn(C4CC4)c3c2F)CCN1,KD1987 (GYRA A91V),-,MIC99,-,0.53 µg/mL
C[C@H]1[C@H](O)[C@@H](C)/C=C/C=C/C=C/C=C/C=C/C=C/C=C/[C@H](O[C@@H]2O[C@H](C)[C@@H](O)[C@H](N)[C@@H]2O)C[C@@H]2O[C@](O)(C[C@@H](O)C[C@@H](O)CC[C@H](O)[C@@H](O)C[C@@H](O)CC(=O)O[C@H]1C)C[C@H](O)[C@H]2C(=O)O,ATCC 607,agar,inhibition,100 µg/mL,100%
CCCN(CCC)C(=O)c1cc(C)cc(C(=O)N[C@@H](Cc2cc(F)cc(F)c2)[C@H](O)CNCc2cccc(I)c2)c1,ATCC 19420,agar diffusion,zone,100 µg/disc,9 mm
CCOc1c(N2CCC(CNC)C2)c(F)cc2c(=O)c(C(=O)O)cn(C3CC3)c12,ATCC 19420,-,MIC,-,0.25 µg/mL
COc1c(N2CC(C)NC(C)C2)c(F)cc2c(=O)c(C(=O)O)cn(C3CC3)c12,KD1998 (GYRA D95N),-,MIC99,-,0.93 µg/mL
Cc1nn(-c2ccccc2)c2c1C(c1cn(-c3ccccc3)nc1-c1ccc(Cl)cc1)C1=C(NC(C)(c3cc(O)c(I)cc3Cl)NC1=O)O2,NCIM 5138,agar diffusion / agar,zone,0.5 mg/mL,5 mm
C[C@H]1COC2(CCN(c3nc(=O)c4cc(C(F)(F)F)cc(C(=O)O)c4s3)CC2)O1,mc2155,resazurin,MIC99,-,0.001 µg/mL
CC1CN(c2cc3c(cc2F)c(=O)c(C(=O)O)cn3C2CC2)CC(C)N1,KD1998 (GYRA D95N),-,MIC99,-,3.4 µg/mL
COc1nc2ccc(Br)cc2cc1[C@@H](c1ccccc1)[C@@](O)(CCN(C)C)c1cccc2ccccc12,delta-cyt-bd,broth dilution,MIC80,-,0.06 µM
O=C(O)c1cc(C(F)(F)F)cc2c(=O)nc(N3CCN(CC4CCCCC4)CC3)sc12,MN47,resazurin,MIC99,-,6.25 µg/mL
CC(C(=O)O)c1ccc2c(c1)[nH]c1ccc(-c3ccccc3)cc12,-,resazurin / visual reading / absorbance,MIC99,-,>500 µg/mL
CCN1CCN(c2c(F)cc3c(=O)c(C(=O)O)cn(C4CC4)c3c2OC)CC1,KD1990 (GYRA D95A),-,MIC99,-,0.41 µg/mL
COC(=O)Cc1ccc2c(c1)[nH]c1ccc(Cl)cc12,-,resazurin / visual reading / absorbance,MIC99,-,>500 µg/mL
NNC(=O)c1ccncc1,ATCC 700084,broth dilution,MIC100,-,117 µM
O=C(O)Cc1cccc2[nH]c3ccc(Cl)cc3c12,-,resazurin / visual reading / absorbance,MIC99,-,500 µg/mL
O=C(O)c1cn(C2CC2)c2c(Br)c(N3CCNCC3)c(F)cc2c1=O,ATCC 19420,-,MIC,-,0.06 µg/mL
CC(=O)O[C@@]12CO[C@@H]1C[C@H](O)[C@@]1(C)C(=O)[C@H](O)C3=C(C)C(OC(=O)/C=C/c4ccc5ccccc5c4)C[C@@](O)([C@@H](OC(=O)c4ccccc4)[C@H]21)C3(C)C,-,agar / colony count / visual reading,EC50,-,18 µM
COc1c(N2CCN(C(C)C)CC2)c(F)cc2c(=O)c(C(=O)O)cn(C3CC3)c12,KD1998 (GYRA D95N),-,MIC99,-,4.1 µg/mL
C[C@H]1NCc2cc(-c3ccc4c(=O)c(C(=O)O)cn(C5CC5)c4c3OC(F)F)ccc21,A9826,-,MIC,-,0.06 µg/mL
CC(=O)Nc1ccc(Nc2nc(-c3cccc(N)c3)nc3c2ncn3C2CCCCC2)cc1,mc2155,resazurin / fluorescence,MBC,-,62.7 µM
COc1ccc(-c2ccc3[nH]c4cc(C(C)C(=O)O)ccc4c3c2)cc1,-,resazurin / visual reading / absorbance,MIC99,-,>500 µg/mL

Again, the opening 3 rows:

SMILES,strain or isolate,read by,read-out,tested at,value
Cc1nn(-c2ccccc2)c2c1C(c1cn(-c3ccccc3)nc1-c1ccc(F)cc1)C1=C(NC(C)(c3cc(O)c(Cl)c(O)c3)NC1=O)O2,NCIM 5138,agar diffusion / agar,zone,0.5 mg/mL,7.6 mm
CCCC(=O)O[C@@H](C[C@@]1(C)[C@H](C)CCC(=O)[C@@H]1C)/C(C)=C/Cc1c(O)c(Cl)c(C)c(C=O)c1O,ATCC 607,agar diffusion,zone,10 µg/disc,8 mm
O=C(O)c1cn(C2CC2)c2c(F)c(N3CCNCC3)c(F)cc2c1=O,KD2003 (GYRA D95G),-,MIC99,-,1.3 µg/mL

Zone: diameter of growth inhibition. Lines come from different laboratories, so protocols vary. MIC50, MIC90 and the like: level of inhibition, or share of isolates inhibited. An empty or dashed field is not shown. Inhibition is in % at the dose shown (toxicity tests: loss of growth or viability).